Experimental data taken from article PMC2781006 (Virology Journal, 2009).

Assays:
Nipah virus = type: cell-based; conditions: ratio CC50 / IC50
Hendra virus = type: cell-based; conditions: ratio CC50 / IC50

Compound | NiV TI (CellTiter-Glo) (Nipah virus) | NiV TI (alamarBlue) (Nipah virus) | HeV TI (CellTiter-Glo) (Hendra virus) | HeV TI (alamarBlue) (Hendra virus)
CN(C)c1ccc(C(=C2C=CC(=[N+](C)C)C=C2)c2ccc(N(C)C)cc2)cc1 [Gentian Violet, gentian violet] | 11.16 | 5.39 | 2.19 | 1.06
CN1C(=O)[C@]23CC4=CC=C[C@H](O)[C@H]4N2C(=O)[C@@]1(CO)SS3 [Gliotoxin, gliotoxin] | 32.81 | 10.80 | 8.44 | 2.78
NC(=O)c1ncn([C@@H]2O[C@H](CO)[C@@H](O)[C@H]2O)n1 [Ribavirin, ribavirin] | 38.42 |  | 66.82 | 
brilliant green | 21.39 | 3.95 | 6.00 | 1.11
